# According to US20150044169:
# For at least one entry, the source does not settle the construct or the ends of the probe.
# Key:
# [1] = system: GST-NS4B (Hepatitis C virus); experiment: pull-down; conditions: 10 mM Na HEPES pH 7.4, 33 mM NaCl, 10 mM MgCl2, 37 C; purified recombinant protein; protein details: GST fusion, E. coli BL21; label: Cy5 (32P in pull-down and filter assays)
# [2] = system: mistic-NS4B (Hepatitis C virus); experiment: filter binding; conditions: 50 mM HEPES pH 7.0, 50 mM NaCl, 1 mM MgCl2, tRNA, 3.3 nM RNA, 30 C; purified recombinant protein; protein details: N-terminal 6xHis-MISTIC fusion, E. coli; label: Cy5 (32P in pull-down and filter assays)
sequence,measurement,setting,value
ACUCGAGCGGCCGCCACUGUGCUGGAUAUCGAUCCAUGGCGCGCCCUUUGGUUUUUCUUUGAGGUUUAGGAUUCGUGCUCAUGGUGCACGGUCUACGAGACCUCCCGGGGCACUCGCAAGCACCCUAUCAGGCAGUACCACAAGGCCUUUCGCGACCCAACACUACUCGGCUAGCAGUCUCGCGGGGGCACGCCCAAAUCUCCAGGCAUUGAGCGGGUUGAUCCAAGAAAGGACCCGGUCGUCCUGGCAAUUCCGGUGUACUCACCGGUUCCGCAGACCACUAUGGCUCUCCCGGGAGGGGGGGUCCUGGAGGCUGCACGACACUCAUACUAACGCCAUGGCUAGACGCUUUCUGCGUGAAGACAGUAGUUCCUCACAGGGGAGUGAUCUAUGGUGGAGUGUCGCCCCCAAUCGGGGGCUGGCUAUAGUGAGUCGUAUUAUGAUAUCUGCAGAAUUCCACCACACUGGACUAGUGGAUCCGAGCUCGGUACCAAGCUUAAGUUUAAACGCUAGCCAGCUUGGGUCU [3' negative terminus (HCV negative strand)],binding result,[1],binds
same,binding result,[2],binds
